Experimental data reported in PMC5815094.

Legend:
[1] = target: T1, Crc (Pseudomonas aeruginosa PAO1) (UniProt Q51380); test: MST; conditions: 200 nM labelled Crc, no Hfq; ES buffer: 10 mM Tris pH 8.0, 10 mM KCl, 40 mM NaCl, 1 mM MgCl2; MST + 0.05% Tween-20, room temperature; recombinant protein; protein details: His6-tag (N-terminal) removed with HRV14-3C; label: 5'-32P (EMSA), 5'-6-FAM (Fig 6D), unlabelled (MST)
T1 sequence (looked up, limits assumed): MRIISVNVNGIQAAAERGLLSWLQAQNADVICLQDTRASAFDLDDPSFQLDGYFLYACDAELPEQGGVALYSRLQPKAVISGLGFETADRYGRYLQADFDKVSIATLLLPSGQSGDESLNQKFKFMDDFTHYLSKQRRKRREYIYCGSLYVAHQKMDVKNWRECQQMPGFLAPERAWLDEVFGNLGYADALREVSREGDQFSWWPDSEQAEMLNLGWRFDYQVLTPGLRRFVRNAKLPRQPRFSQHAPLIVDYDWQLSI

Hfq + Crc [2] = test: SEC-MALS; conditions: ES buffer, not 1:1:1 stoichiometry; ES buffer: 10 mM Tris pH 8.0, 10 mM KCl, 40 mM NaCl, 1 mM MgCl2; recombinant protein; label: 5'-32P (EMSA), 5'-6-FAM (Fig 6D), unlabelled (MST)
[3] = target: Hfq (Pseudomonas aeruginosa PAO1) (UniProt Q9HUM0); test: EMSA dissociation (competition); conditions: 80 nM Hfq6, 100 nM unlabelled amiE6ARN, 15-120 s, no Crc; ES buffer: 10 mM Tris pH 8.0, 10 mM KCl, 40 mM NaCl, 1 mM MgCl2; EMSA + 25 ng tRNA per 10 ul, 37 C 15 min (Fig 6D); recombinant protein; label: 5'-32P (EMSA), 5'-6-FAM (Fig 6D), unlabelled (MST)
Hfq + Crc [4] = test: MST; conditions: Hfq titrated, 500 nM amiE6ARN and 1 uM Crc present; ES buffer: 10 mM Tris pH 8.0, 10 mM KCl, 40 mM NaCl, 1 mM MgCl2; MST + 0.05% Tween-20, room temperature; recombinant protein; label: 3'-pCp-Cy5 (MST, EMSA), unlabelled (co-IP); probe letters rebuilt from the primers and the genome
Hfq + Crc [5] = test: co-IP (anti-Hfq); conditions: no ternary complex: Crc not captured, Hfq-RNA binding not read out, ES buffer: 10 mM Tris pH 8.0, 10 mM KCl, 40 mM NaCl, 1 mM MgCl2, recombinant protein

AAAAAUAACAACAAGAGG [amiE6ARN]: no binding [1]; binds (Hfq + Crc [2]); binds [3].
In the case of “GGACUGGUCGCGAGGCCAGCAGGUAAGCUGAGAGACCAAGCAGUCGGACUCUUCAGAUUAUCUCCUCAUCAGGCUAAUCACGGUUUCGACCCGGCACUUUGCCGGGUCUUUUUUUG [PrrF2 sRNA]”, the Kd (Hfq + Crc [4]) is reported as 35 nM and the binding result (Hfq + Crc [5]; label: 3'-pCp-Cy5 (MST, EMSA), unlabelled (co-IP), probe letters rebuilt from the primers and the genome) is reported as “no binding”.
UUUUUUUUUUUUUU [poly(U)14]: no binding (Hfq + Crc [5]).

The exact form of at least one protein or probe is not confirmed. For part of these data: A negative result means that nothing was seen under these conditions. For part of these data: At least one verdict rests on a figure or table, not on a statement of the authors. For part of these data: Protein sequences can lack the tags named with them.
